Results of unrelated studies side by side (data: NIAID ChemDB).

All rows: growth or infection tests; agent: Candida albicans

Lines come from different laboratories, so protocols vary. a–b is a range or a potency band. A number after MIC or MFC names an inhibition level or a share of isolates. ECn is the concentration giving n% inhibition of infection, replication or growth.

{"structure": "Cc1c(N2CCCC(CO)C2)c(F)cn2c(=O)c(C(=O)O)cc(C3CC3)c12", "strain or isolate": "CCH442", "measure": "MIC", "result": ">100 µg/mL"}
{"structure": "C1CCC(C[C@@H]2CN3C(=NC[C@@H]3C3CCCCC3)N2CCC23CC4CC(CC(C4)C2)C3)CC1", "strain or isolate": "ATCC 10231", "measure": "MIC", "result": "3–4 µg/mL"}
{"structure": "Cc1c(N2CC(CN)C2)c(F)cn2c(=O)c(C(=O)O)cc(C3CC3)c12", "strain or isolate": "CCH442", "measure": "MIC", "result": ">100 µg/mL"}
{"structure": "Fc1ccc(CCC2CCCc3cnccc32)cc1", "strain or isolate": "C316", "measure": "MIC", "result": "31 µg/mL"}
{"structure": "CC1=C(N2C[C@@H]3CCCN[C@@H]3C2)C(F)=CN2C(=O)C(C(=O)O)=CC(C3CC3)C12", "strain or isolate": "CCH442", "measure": "MIC", "result": ">100 µg/mL"}
{"structure": "CC(C)(C)C1CCC(CN2C3=NC[C@H](C4CCCCC4)N3C[C@@H]2CC2CCCCC2)CC1", "strain or isolate": "ATCC 10231", "measure": "EC50", "result": "8.7 µg/mL"}
{"structure": "C[C@H](CCC(=O)NCCNCCNC(=O)CC[C@@H](C)[C@H]1CCC2C3CCC4C[C@H](O)CC[C@]4(C)C3C[C@H](C)[C@@]21O)[C@H]1CCC2C3CCC4C[C@H](O)CC[C@]4(C)C3C[C@H](C)[C@@]21O", "strain or isolate": "Isolate 4", "measure": "MIC", "result": "0.012 µM"}
{"structure": "Cc1c(N2CC[C@@H]([C@@H]3CCCN3)C2)c(F)cn2c(=O)c(C(=O)O)cc(C3CC3)c12", "strain or isolate": "CCH442", "measure": "MIC", "result": ">100 µg/mL"}
{"structure": "C[C@@H](c1nc(-c2ccc(C#N)cc2)cs1)[C@](O)(Cn1cnnc1)c1ccc(F)cc1F", "strain or isolate": "Isogenic isolate 4 MDR1 (25X)", "measure": "MIC", "result": "0.015 µg/mL"}
{"structure": "COCOC1CCN(c2c(F)cn3c(=O)c(C(=O)O)cc(C4CC4)c3c2C)CC1", "strain or isolate": "CCH442", "measure": "MIC", "result": ">100 µg/mL"}
{"structure": "CCCCCCCCC[C@@H](O)[C@H](C)N", "strain or isolate": "MTCC 854", "measure": "MIC", "result": "37.5 µM"}
{"structure": "COc1cccc(C[N+]2=Cc3cc4c(cc3CC2)OCO4)c1OC.[Br-]", "method": "broth dilution", "strain or isolate": "Clinical isolate", "measure": "MIC80", "changes": "Fluconazole-resistant", "result": ">64 µg/mL"}
{"structure": "COc1cc(C(=O)CC(c2cc(OC)c(OC)c(OC)c2)C(C#N)C#N)cc(OC)c1OC", "strain or isolate": "ATCC 10231", "measure": "MIC", "result": ">50 µg/mL"}
{"structure": "Cc1c(N2CC[C@H](NC(=O)[C@H](C)NC(=O)[C@H](C)N)C2)c(F)cn2c(=O)c(C(=O)O)cc(C3CC3)c12.Cl", "strain or isolate": "CCH442", "measure": "MIC", "result": ">100 µg/mL"}
{"structure": "Clc1ccc(CCC2CCCc3cnccc32)cc1", "strain or isolate": "1208E", "measure": "MIC", "result": "8 µg/mL"}
{"structure": "CC(C)C[C@@H]1CN2C(=NC[C@H]2C2CCCCC2)N1CCC12CC3CC(CC(C3)C1)C2", "strain or isolate": "ATCC 10231", "measure": "MIC", "result": ">64 µg/mL"}
{"structure": "Cc1c(N2CCC3CNCC32)c(F)cn2c(=O)c(C(=O)O)cc(C3CC3)c12", "strain or isolate": "CCH442", "measure": "MIC", "result": ">100 µg/mL"}
{"structure": "C=CCc1ccc(O)c(-c2ccc(O)c(CC=C)c2)c1", "method": "broth dilution", "strain or isolate": "YL 328", "measure": "MIC", "result": "64 µg/mL"}
{"structure": "Cc1ccccc1CC(=O)NCCc1ccc2c(c1)OCO2", "method": "broth dilution", "strain or isolate": "Clinical isolate", "measure": "MIC80", "changes": "Fluconazole-resistant", "result": ">64 µg/mL"}
{"structure": "Cc1c(N2CCc3c(N)cccc3C2)c(F)cn2c(=O)c(C(=O)O)cc(C3CC3)c12.Cl", "strain or isolate": "CCH442", "measure": "MIC", "result": ">100 µg/mL"}
{"structure": "Cc1c(N2CCC3CCCC3C2)c(F)cn2c(=O)c(C(=O)O)cc(C3CC3)c12", "strain or isolate": "CCH442", "measure": "MIC", "result": "50 µg/mL"}
{"structure": "S=C(NCCc1ccc2c(c1)OCO2)Nc1ccccc1", "method": "broth dilution", "strain or isolate": "Clinical isolate", "measure": "MIC80", "changes": "Fluconazole-resistant", "result": ">64 µg/mL"}
{"structure": "C[C@H]1[C@H](O)[C@@H](C)/C=C/C=C/C=C/C=C/C=C/C=C/C=C/[C@H](O[C@@H]2O[C@H](C)[C@@H](O)[C@H](N)[C@@H]2O)C[C@@H]2O[C@](O)(C[C@@H](O)C[C@@H](O)CC[C@H](O)[C@@H](O)C[C@@H](O)CC(=O)O[C@H]1C)C[C@H](O)[C@H]2C(=O)O", "strain or isolate": "SKF", "measure": "MIC", "result": "0.0125 µg/mL"}
{"structure": "Cc1c(N2CC(N)C3(C2)OCCO3)c(F)cn2c(=O)c(C(=O)O)cc(C3CC3)c12.Cl", "strain or isolate": "CCH442", "measure": "MIC", "result": ">100 µg/mL"}
{"structure": "C1CCC(C[C@H]2CN=C3N(CCC45CC6CC(CC(C6)C4)C5)[C@@H](CC4CCCCC4)CN32)CC1", "strain or isolate": "ATCC 10231", "measure": "MIC", "result": "5–8 µg/mL"}
{"structure": "Cc1c(N2CC(CN(C)C)CC3CCCC32)c(F)cn2c(=O)c(C(=O)O)cc(C3CC3)c12.Cl", "strain or isolate": "CCH442", "measure": "MIC", "result": ">100 µg/mL"}
{"structure": "C1CCC(C[C@@H]2CN3C(=NC[C@@H]3CC3CCCCC3)N2CCC23CC4CC(CC(C4)C2)C3)CC1", "strain or isolate": "ATCC 10231", "measure": "EC50", "result": "3 µg/mL"}
{"structure": "Cc1c(N2CC(CO)C2)c(F)cn2c(=O)c(C(=O)O)cc(C3CC3)c12", "strain or isolate": "CCH442", "measure": "MIC", "result": ">100 µg/mL"}
{"structure": "CN1CCC2=C(CCCC2CCc2c(Cl)cccc2Cl)C1", "strain or isolate": "2005E", "measure": "MIC", "result": "16 µg/mL"}
{"structure": "O=C(Cc1ccc(Cl)cc1Cl)NCCc1ccc2c(c1)OCO2", "method": "broth dilution", "strain or isolate": "Clinical isolate", "measure": "MIC80", "changes": "Fluconazole-resistant", "result": ">64 µg/mL"}
{"structure": "CCN1C2=NC[C@H](Cc3ccccc3)N2C[C@H]1CCCN=C(N)N", "strain or isolate": "ATCC 10231", "measure": "MIC", "result": ">250 µg/mL"}
{"structure": "COc1cccc(/C=C/C(=O)c2ccccc2)c1", "strain or isolate": "ATCC 10231", "measure": "MIC", "result": ">50 µg/mL"}
{"structure": "Cc1c(N2CCC(n3ccnn3)C2)c(F)cn2c(=O)c(C(=O)O)cc(C3CC3)c12", "strain or isolate": "CCH442", "measure": "MIC", "result": ">100 µg/mL"}
{"structure": "C1CCC([C@H]2CN=C3N2C[C@@H](C2CCCCC2)N3CCC23CC4CC(CC(C4)C2)C3)CC1", "strain or isolate": "ATCC 10231", "measure": "MIC", "result": "11–16 µg/mL"}
{"structure": "Cc1c(N2CCc3c(N)cccc3C2)c(F)cn2c(=O)c(C(=O)O)cc(C3CC3)c12.Cl", "strain or isolate": "CCH442", "measure": "MIC", "result": ">100 µg/mL"}
{"structure": "COc1ccc(OC)c(C(=O)/C=C/c2cc3cc(OC)c(OC)cc3nc2Cl)c1", "strain or isolate": "ATCC 10231", "measure": "MIC", "result": ">50 µg/mL"}
{"structure": "CCN1C2=NC[C@@H](C3CCCCC3)N2C[C@@H]1Cc1ccccc1", "strain or isolate": "ATCC 10231", "measure": "MIC", "result": ">64 µg/mL"}
{"structure": "CN1CCC2=C(CCCC2CCc2ccc(Cl)c(Cl)c2)C1", "strain or isolate": "2005E", "measure": "MIC", "result": "8 µg/mL"}
{"structure": "CCN1C2=NC[C@H](C3CCCCC3)N2C[C@@H]1Cc1ccccc1", "strain or isolate": "ATCC 10231", "measure": "EC50", "result": ">64 µg/mL"}
{"structure": "COC(=O)C(C(=O)OC)C(CC(=O)c1ccccc1)c1ccc2ccccc2c1", "strain or isolate": "ATCC 10231", "measure": "MIC", "result": ">50 µg/mL"}
{"structure": "COc1cc(C[C@H](C)[C@H](C)Cc2ccc(O)c(O)c2)ccc1O", "method": "broth dilution", "strain or isolate": "CCC 129-2000", "measure": "MIC50", "result": "31.25 µg/mL"}
{"structure": "Cc1c(N2CC[C@H](CO)C2)c(F)cn2c(=O)c(C(=O)O)cc(C3CC3)c12", "strain or isolate": "CCH442", "measure": "MIC", "result": "6.2 µg/mL"}